PubChem BioAssay AID504761, Drosophila RNAi Screening Center – 2011

Test: 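Fly genes whose silencing reduces dengue virus type 2 infection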 (primary screen)
Cell system: D.Mel-2 cells from Drosophila
Reagents: long dsRNA against Drosophila genes
Conditions: infection with dengue virus type 2; dose and infection time not stated
Detection: 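Cells stained for dengue envelope protein and imaged; percent of infected cells per well on duplicate plates, ranked by infection, with stained nuclei counted for cell number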
Scale: infection score: higher = more virus-infected cells; cell count: higher = more cells in the well
Call rule: 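Very low infection ranking in both replicate wells (chance probability at most 0.065), then a retest showing infection dropped 1.5-fold or more at p below 0.05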
Calls: active = confirmed: knock-down lowers infection; inactive = not picked or not confirmed
In all, the deposit lists about 22,000 reagents; this is a random part of those with a known target gene and a result. Over the whole deposit, 116 (0.52%) were called active. 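Calls depend on retest data that are not deposited; infection was ranked per plate without normalising between plates; the unit of the infection score is not given.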 Raw values are not corrected between plates. Entries without a mark were called inactive. A plus sign joins genes that one reagent is predicted to hit. The record does not give: the amount of reagent, the time to read-out.

The opening 3 records, to show the layout:
gene | amplicon | infection score, replicate 1 | infection score, replicate 2 | cell count, replicate 1 | cell count, replicate 2
Ir8a (Ionotropic receptor 8a) | DRSC17817 | 11 | 13.6 | 5280 | 5566
Ir8a (Ionotropic receptor 8a) | DRSC17869 | 4.52 | 36.9 | 642 | 4738
CG18745 | DRSC15382 | 5.15 | 13.2 | 6654 | 5838

Main list, from the first entry:
gene | amplicon | infection score, replicate 1 | infection score, replicate 2 | cell count, replicate 1 | cell count, replicate 2
Ir8a (Ionotropic receptor 8a) | DRSC17817 | 11 | 13.6 | 5280 | 5566
Ir8a (Ionotropic receptor 8a) | DRSC17869 | 4.52 | 36.9 | 642 | 4738
CG18745 | DRSC15382 | 5.15 | 13.2 | 6654 | 5838
CG18745 | DRSC30088 | 13.8 | 22.2 | 6515 | 5096
CG4563 | DRSC04474 | 8.21 | 12.9 | 6837 | 6209
CG13581 | DRSC04216 | 9 | 5.23 | 6625 | 6595
CG13359 | DRSC18539 | 7.26 | 6.41 | 4423 | 6861
CG13359 | DRSC26791 | 9.26 | 17.7 | 7330 | 6545
CG7220 | DRSC05235 | 1.13 | 2.01 | 6193 | 5771
CG7220 | DRSC07018 | 8.46 | 9.16 | 6947 | 6591
CG7220 | DRSC26138 | 4.79 | 1.11 | 6577 | 5697
Ranbp16 | DRSC20160 | 2.36 | 2.04 | 6513 | 6173
CG32694 | DRSC17844 | – | 8.76 | 361 | 1370
CG32694 | DRSC17855 | 0.84 | 3.18 | 6631 | 6794
CG32694 | DRSC22670 | 4.82 | 2.48 | 7057 | 6201
CG32694 | DRSC25731 | 3.63 | 10.8 | 5848 | 5080
vimar (visceral mesodermal armadillo-repeats) | DRSC05026 | 20.1 | 18.8 | 7041 | 6084
robl37BC | DRSC02472 | 5.03 | 2.7 | 6280 | 6627
mr (morula) | DRSC04332 | 27.5 | 23 | 5742 | 6132
mr (morula) | DRSC22856 | 2.28 | 8.99 | 6181 | 6231
mr (morula) | DRSC29384 | 14.2 | – | 4361 | 393
Ets65A (Ets at 65A) | DRSC09968 | 2.12 | 2.04 | 5981 | 5642
Ets65A (Ets at 65A) | DRSC10738 | 5.75 | 4.88 | 6610 | 6817
Ets65A (Ets at 65A) | DRSC11164 | 14.6 | 3.68 | 6509 | 6792
CHKov1 (CHK domain ov1) | DRSC01566 | 6.05 | 3.27 | 6147 | 6335
CHKov1 (CHK domain ov1) | DRSC01696 | 4.05 | 3.41 | 5848 | 5860
CHKov1 (CHK domain ov1) | DRSC14258 | 11.6 | 12.4 | 5462 | 6653
CHKov1 (CHK domain ov1) | DRSC20937 | 4.11 | 12.7 | 6683 | 5252
CHKov1 (CHK domain ov1) | DRSC30063 | 3.71 | 9.68 | 6284 | 5941
Tes (Testin) | DRSC06996 | 19.4 | 22.1 | 5344 | 5408
spn-E (spindle E) | DRSC17064 | 4.68 | 8.38 | 6427 | 6417
Spc105R (Spc105-related) | DRSC11663 | 14.1 | 7.65 | 3297 | 3923
CG3626 | DRSC18318 | 9.45 | 3.36 | 4687 | 2469
CG3626 | DRSC26443 | 0.63 | 1.57 | 6831 | 6861
CG7492 | DRSC10855 | 4.9 | 5.16 | 5856 | 5716
CG30289 | DRSC03870 | 4.26 | 3.09 | 5381 | 5445
CG9616 | DRSC16518 | 4.7 | 8.91 | 6107 | 6409
CG9616 | DRSC27905 | 2.38 | 42.1 | 6374 | 5501
825-Oak + CG32214 + CG32213 | DRSC27977 | 5.66 | 15.6 | 6294 | 6728
